The source of these data is PubChem BioAssay AID624414 (National Center for Advancing Translational Sciences (NCATS), 2012).

Protein sequences, listed by entry. Tags and fused reporters are not part of them.
UniProt Q9GZU1, whole entry: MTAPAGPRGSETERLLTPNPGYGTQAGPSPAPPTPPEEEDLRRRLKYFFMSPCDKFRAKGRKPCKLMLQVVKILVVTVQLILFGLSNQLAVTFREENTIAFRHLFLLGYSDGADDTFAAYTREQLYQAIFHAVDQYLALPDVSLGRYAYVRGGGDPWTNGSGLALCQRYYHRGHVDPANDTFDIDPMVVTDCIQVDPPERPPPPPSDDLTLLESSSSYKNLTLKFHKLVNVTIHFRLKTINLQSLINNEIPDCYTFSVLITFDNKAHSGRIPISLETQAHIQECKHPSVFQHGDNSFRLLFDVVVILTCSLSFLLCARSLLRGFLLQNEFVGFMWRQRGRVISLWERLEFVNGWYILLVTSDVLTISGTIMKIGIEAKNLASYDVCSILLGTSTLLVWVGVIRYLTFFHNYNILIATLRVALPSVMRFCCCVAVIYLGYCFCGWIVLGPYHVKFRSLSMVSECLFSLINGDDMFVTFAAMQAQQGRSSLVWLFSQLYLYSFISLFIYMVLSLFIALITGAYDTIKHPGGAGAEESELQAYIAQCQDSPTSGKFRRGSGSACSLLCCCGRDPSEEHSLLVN

Each structure is given as a SMILES string. The entries are a selection whose mix differs from that of the whole data set. Activity calls are given as the source filed them. Cut-off read from the data, not from the text of the source: active = activation above about 50%; inconclusive = mostly about 30% to 49%; inactive = weaker than that.

This experiment addresses Mucolipin-1 (Homo sapiens) (UniProt Q9GZU1). Put plainly: qHTS for Agonists of the Human Mucolipin Transient Receptor Potential 1 (TRPML1). Note: 0% is about no effect. As to conditions: TRPML1-expressing cells, Ca2+ dye fluorescence, FDSS; stronger effect = higher value. Put shortly: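 Tetracycline-induced TRPML1-DL cells are seeded and incubated overnight before loading with a no-wash Ca2+ dye and quencher. Agonist activity is taken from the 110 s fluorescence read following compound pin-transfer on an FDSS, before EC80 54-4 challenge.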
For orientation: In qHTS, concentration-response curves come from the screen itself.
For `C[C@@H]1C=CCP(=O)(Oc2ccccc2)O1` (some centres undefined), the activation was inactive: -0.448%.

For `CC(=O)c1ccc(N2CC2c2ccncc2)cc1` (centres undefined), the activation is inactive: 0.532%.

As for `N#C/C(=C\c1ccc(N(CCBr)CCBr)cc1)C(N)=O`, the activation is inactive: -0.323%. Consider `COC(=O)C1(C)COP(=O)(NCc2ccccc2)OC1` (centres undefined), for which the activation was inactive: 0.184%. With `c1nnnn1CCn1cnnn1`, the activation is inactive: 0.314%. Then `CCOP(C)(=S)SCC(=O)NC(C)(CC)C(=O)O` (centres undefined), with inactive: -0.524%.

`CC(C)C(=O)NC(Sc1ccccc1)C(Cl)(Cl)Cl` (centres undefined): the activation is inactive: 0.103%.

Consider `O=P(Nc1nccs1)(c1ccccc1)c1ccccc1`, for which the activation is inactive: -1.01%. As for `CP(=O)(Nc1ccc(SC(F)(F)F)cc1)Oc1ccc(F)cc1` (centres undefined), the activation is inactive: 0.659%. Then `O=[N+]([O-])c1cc([N+](=O)[O-])c(C(F)(F)F)c([N+](=O)[O-])c1O`, with inactive: -0.0965%; and `COc1cccc([N+](=O)[O-])c1[N+](=O)[O-]`, with inactive: -0.501%; and `Cc1ccccc1NP(C)(=O)Nc1ccccc1C`, with inactive: -0.295%. With `CP(=O)(Nc1ccc2c(c1)OCCO2)Oc1ccccc1` (centres undefined), the activation was inactive: -0.0689%. As for `COc1ccc(NP(C)(=O)Oc2ccccc2OC)cc1` (centres undefined), the activation was inactive: 0.548%. The result for `CN(C)CCOC(=O)C(O)(c1ccccc1)C1CCCCC1` (centres undefined) reads inactive: 0.734%. Then `O=P(Nc1nc2ccccc2s1)(c1ccccc1)c1ccccc1`, with inactive: 1.2%. The result for `C[C@H]1OP(=O)(Oc2ccccc2)[C@H](O)[C@H](O)[C@H]1N=[N+]=[N-]` (some centres undefined) reads inactive: -0.376%; that for `O=P(Nc1ccccn1)(c1ccc(Br)cc1)c1ccc(Br)cc1`, inactive: -0.17%; that for `CN(C)C1(CNC(=O)c2ccc(Cl)c(S(N)(=O)=O)c2)CCCCC1`, inactive: -0.163%. Regarding `COc1ccc(OP(C)(=O)Nc2cccc(Br)c2)cc1` (centres undefined), the activation was inactive: 0.442%. Then `COc1ccc(N)c([N+](=O)[O-])c1[N+](=O)[O-]`, with inactive: -0.893%; and `O=C(OC1CN2CCC1CC2)c1cccc(Cl)c1` (centres undefined), with inactive: -0.629%. The result for `Cc1c(C(c2ccc3c(c2)OCO3)c2c(C)n(C)n(-c3ccccc3)c2=O)c(=O)n(-c2ccccc2)n1C.O=[N+]([O-])c1cc([N+](=O)[O-])c(O)c([N+](=O)[O-])c1` reads inactive: 0.147%; that for `C(Cc1nn[nH]n1)Cc1nn[nH]n1`, inactive: -0.26%; that for `Nc1ccc([As](=O)(O)c2ccc([N+](=O)[O-])cc2)cc1`, inactive: 0.493%.

As to `O=[As](O)(c1ccccc1)c1ccc(O)cc1`, the activation was inactive: 2.19%. The result for `Cc1cc(-c2cccc3ccccc23)c(C)cn1.O=[N+]([O-])c1cc([N+](=O)[O-])c(O)c([N+](=O)[O-])c1` reads inactive: 2.43%; that for `CC(=O)NC(SC(=S)N(C)C)C(Cl)(Cl)Cl` (centres undefined), inactive: 0.884%. Regarding `O=[N+]([O-])c1ccc(OP2(=O)COCCO2)cc1` (centres undefined), the activation is inactive: 0.318%.
